Laboratory results reported in paper PMC2902600.

Target: HIV-1 MA protein (HIV-1)
Assay: SAXS

Xenopus laevis calmodulin (from UniProt P0DP33 2-149) (natural protein)
stoichiometry N: 1
